Values of other authors as cited in patent US20230127499A1, “PEPTIDES AND ADJUVANTS FOR AU[…] […] FOR CORONAVIRUS” (FIGENE, LLC, priority 2020, published 2023).

System: patients
Details: administered systemically as a cancer therapeutic; some patients; cited from earlier work

TNF-alpha
adverse effects: ARDS-type pathology
